According to publication PMC5335569:
Where “and” joins values, the source holds several entries; their conditions need not be identical. Equal values may be shown once.

How the values were obtained:
[1] = biological target: Crotoxin B (Crotalus durissus terrificus) (UniProt P62022); assay: SEC
[2] = biological target: Crotoxin B (Crotalus durissus terrificus) (UniProt P62022); assay: ITC

Crotoxin A (natural protein)
stoichiometry N (molar ratio CB/CA) [1]: 1.04 and 0.96 and 1.01 | Kd, event 2 (assigned by the paper to formation of the CTX heterodimer) [2]: 160 nM | dH, event 2 (assigned by the paper to formation of the CTX heterodimer) [2]: -26 kcal/mol
